This note sets out measurements from article PMC3702619.

Construct, isoform or probe ends are uncertain for at least one entry.

The series has as its target PA3699 (Pseudomonas aeruginosa PAO1) (UniProt Q9HXU1). Briefly: EMSA. Conditions: EMSA: 20 mM Tris-HCl pH 8.0, 2 mM EDTA, 5 mM MgCl2, 30 mM KCl, 5% glycerol, 0.025% NP-40, 30 ug/ml poly(dI):(dC), 0.2 nM probe, 15 min at 22 C; recombinant protein; protein details: N-terminal 6xHis (pET-28b) cleaved with thrombin; label: 32P (dATP fill-in with Klenow); probe letters rebuilt from the primers and the genome; part of a longer molecule. For orientation: Mobility shift assays separate free from complexed probe on a gel.

“CGGTCGCACGCGTGGCGATGGGCCGACAGTGAACCCGGGGACCAGGTGTGACTGGGTATTCAGTTCGCATAAAATGTGATCTAGATCACATTTAAACGTTTGCTTACCCTCTAGGACGGGTATCGTACTAGGTGCATCAAACGCTGCGGTCTATTGTTAAGTGGGACTGAAATGTGCCTTTCCGGCACAACGCCAACTCTATAGAGTGGG (double strand) [PlasRp EMSA probe]”: the binding result is reported as “binds”.
